Pooled drug test results. Numbers come from NIAID ChemDB, via PubChem.

Shared fields: toxicity to cultured cells; endpoint: CC50

Blank or dashed fields: not listed here.

structure,read by,cells,result
O=c1[nH]c(=O)n([C@@H]2C[C@@H](O)[C@H](CO)O2)cc1/C=C/Br,-,HEL 299,>200 µM
CCOC(=O)c1[nH]c2c(c1N)C1=C(CCC/C1=C\c1ccncc1)C(c1ccncc1)S2,MTT,MGC-803,>50 µM
O=C1NC(=O)/C(=C/c2ccc(-c3ccc(C(=O)Nc4ccccc4)cc3)cc2)S1,MTS,HepG2-NTCP,>10 µM
Cc1ccc2nc(Cl)c(/C=C/C(=O)c3sccc3C)cc2c1,MTS,CEM,82.1 µM
CC1(C(=O)NCCOCCN2C(=O)C=CC2=O)CC(C)(C(=O)NCCOCCN2C(=O)C=CC2=O)CC(C)(C(=O)NCCOCCN2C(=O)C=CC2=O)C1,-,PM1 (PHA stimulated),1.8 µM
Cc1cc(I)ccc1Nc1s[nH]c(=O)c1C#N,-,Huh7,>50 µM
Cc1nc(Cc2ccccc2)c2[nH]c(=S)[nH]c(=O)n12,-,WI-38,100 µg/mL
CNC(=S)N=Nc1c(O)[nH]c2ccccc12,-,hRD,>25 µM
CCCCCCCCCCCCCCCCOP1(=O)CO[C@@H](Cn2ccc(N)nc2=O)CO1,-,BCBL-1,>1 µM
CCOC(=O)CCCCCOc1cccc(CN(C(=O)c2ccc(-c3ccncc3)cc2)C(C)C)c1,-,BJ,>20 µM
CC(=O)N1C(=S)NC2=C(CCc3ccccc32)C1c1cccs1,-,HUh-7 and HepG2,1788 µM
COc1ccc2nc(Cl)c(/C=C/C(=O)c3ccc[nH]3)cc2c1,MTS,VERO,16.4 µM
CCCCCCCCCCCCOCCCOP1(=O)CO[C@@H](Cn2ccc(N)nc2=O)CO1,-,BCBL-1,>1 µM
COc1ccc2c(c1)[nH]c1cc(OC)c(C(=O)O)cc12,tetrazolium,1A2,54.1 µM
N#Cc1c(NCC2CCCCC2)s[nH]c1=O,-,Huh7,>50 µM
C=CCc1ncn2c(=O)[nH]c(NC(C)=O)nc12,-,PRK,200 µg/mL
Cc1[nH]c2ccccc2c1CCC(=O)N[C@@H](Cc1ccccc1)C(=O)N(C)c1ccccc1,XTT,TZM-gfp,76 µM
CCCNC(=S)N=Nc1c(O)[nH]c2ccccc12,-,hRD,>25 µM
CC1=CC2c3c(C)cc(-c4cc5ccc(O)cc5o4)cc3O[C@@]3(c4ccc(O)cc4O)Oc4cc(O)ccc4[C@H](C1)C23,MTT,HepG2.2.5 cells,8.04 µM
C[C@]1(Cn2cc(COc3cccc(Cl)c3)nn2)Cn2cc([N+](=O)[O-])nc2O1,MTT,J774,>40 µg/mL
Oc1c(N=NC(=S)Nc2ccccc2)c2ccccc2n1Cc1ccccc1,-,hRD,>25 µM
Cc1ccc(Sc2cc(=O)n(C)c3ncccc23)cc1,-,Huh-Luc-Neo,>100 µM
Cc1ccc2nc(Cl)c(/C=C/C(=O)c3ccsc3)cc2c1,MTS,VERO,4.8 µM
CCOC(=O)C1=C(CN2CC(F)(F)[C@@H]3[C@H]2CON3C[C@@](C)(O)C(=O)O)NC(c2nccs2)=N[C@H]1c1cccc(F)c1C,WST / absorbance,HepG2.2.15,>50 µM
C[C@@]1(O)[C@H](O)[C@@H](CO)O[C@H]1n1cc(C#CCO)c2c(N)ncnc21,-,ET,>50 µM
O=C(NCCOCCOCCN1C(=O)C=CC1=O)c1cc(C(=O)NCCOCCOCCN2C(=O)C=CC2=O)cc(C(=O)NCCOCCOCCN2C(=O)C=CC2=O)c1,-,PM1 (PHA stimulated),0.33 µM
O=C(O)c1cn(C2CC2)c2cc(N3CCNCC3)ccc2c1=O,-,CHL,123 µg/mL
CCc1ccc(OCc2cn(C[C@@]3(C)Cn4cc([N+](=O)[O-])nc4O3)nn2)cc1,MTT,J774,>40 µg/mL
CC(=O)Nc1nc2c(CC(O)CO)nc(C)n2c(=O)[nH]1,-,PRK,400 µg/mL
O=C(NCc1ccc(Cl)cc1)c1cn2c(CCO)cc3cc(CN4CCOCC4)cc(c1=O)c32,MTS,CBL,>20.8 µM
CCC#Cc1cn([C@@H]2O[C@H](CO)[C@@H](O)[C@@]2(C)O)c2ncnc(N)c12,-,ET,>50 µM
CCCNCc1cccc(OCCCCCC(=O)OCC)c1,-,RAJI,>20 µM
Cc1ccc2nc(Cl)c(/C=C/C(=O)c3ccc(Cl)s3)cc2c1,MTS,VERO,48.2 µM
Cn1c(=O)cc(Sc2ccc(F)cc2)c2cc(F)ccc21,-,Huh-Luc-Neo,>100 µM
OCC(CO)OCn1c(SCc2ccccc2)nc2cc(Cl)c(Cl)cc21,-,KB,>100 µM
CN(C(=O)[C@H](Cc1ccccc1)NC(=O)CNC(=O)c1ccccc1)c1cccc(F)c1,XTT,TZM-gfp,>50 µM
CCOC(=O)C1=C(CN2CCOCC2)NC(C2=NC=CC2)=NC1c1ccc(F)cc1Br,MTT,Primary human hepatocytes,115 µM
C[C@]1(Cn2cc(COc3ccccn3)nn2)Cn2cc([N+](=O)[O-])nc2O1,MTT,J774,>40 µg/mL
COc1c(N2CCNC(C)C2)c(F)cc2c(=O)c(C(=O)O)cn(C3CC3)c12,-,CHL,171 µg/mL
O=C(NCc1ccc(Cl)cc1)c1c[nH]c2c(F)cccc2c1=O,-,REF,>100 µM
OCCOCn1c(=S)[nH]c2cc(Cl)c(Cl)cc21,visual reading,HFF,>100 µM
N=c1c2c(ncn1Nc1ccccc1)SC(c1ccncc1)C1=C2/C(=C/c2ccncc2)CCC1,MTT,MGC-803,12.2 µM
CCOC(=O)C1=C(CN2CC(F)(F)[C@@H]3[C@H]2CON3C[C@@H](O)C(C)(C)C(=O)O)NC(c2nccs2)=N[C@H]1c1cccc(F)c1Cl,WST / absorbance,HepG2.2.15,>100 µM
CN(C(=O)[C@H](Cc1ccccc1)NC(=O)CNC(=O)c1ccccc1)c1ccccc1,XTT,TZM-gfp,>50 µM
Oc1[nH]c2ccccc2c1N=NC(=S)Nc1cccc(Cl)c1,-,hRD,>25 µM
N#Cc1c(Nc2ccc(Br)c(C(F)(F)F)c2)s[nH]c1=O,-,Huh7,>50 µM
O=C1NNC(=O)c2c(ncn2[C@@H]2O[C@H](CO)[C@@H](O)[C@H]2O)N1,-,Daudi dividing cells,>50 µM
O=C(Nc1ccc(Cl)cc1)C(=O)NC1CC2(CCCCC2)NC2(CCCCC2)C1,WST,PM1,120 µM
Cc1cn([C@H]2C[C@H](N=[N+]=[N-])[C@@H](CO)O2)c(=O)[nH]c1=O,tetrazolium,1A2,>1 µM
C[C@H]1NCc2cc(-c3c(F)cc4c(=O)c(C(=O)O)cn(C5CC5)c4c3OC(F)F)ccc21,-,CHL,109 µg/mL
CCOC(=O)C1=C(CN2CC(F)(F)[C@@H]3[C@H]2CON3C[C@@H](F)CC(C)(C)C(=O)O)NC(c2nccs2)=N[C@H]1c1cccc(F)c1C,WST / absorbance,HepG2.2.15,50 µM
Cc1ccc(NC(=S)Nc2ccc(Sc3cc(=O)n(C)c4ccc(C)cc34)cc2)cc1,-,Huh-Luc-Neo,>100 µM
Cc1cn(CC(=O)N[C@@H](Cc2ccccc2)C(=O)N(C)c2cccc(Br)c2)c(=O)[nH]c1=O,XTT,TZM-gfp,>50 µM
CC(C)(C)OC(=O)NCC(=O)NCCN1CCC(NC(=O)C(=O)Nc2ccc(Cl)cc2)CC12CCCCC2,WST,PM1,19 µM
OCCOCn1c(Br)nc2c(Cl)c(Cl)ccc21,-,KB,>100 µM
Cn1c(=O)cc(Sc2ccc(N)cc2)c2cccnc21,-,Huh-Luc-Neo,>100 µM
OC[C@H]1O[C@@H](n2c(Br)nc3cc(Cl)c(Cl)cc32)[C@H](O)[C@@H]1O,-,KB,>100 µM
Cc1cccc(OCc2cn(C[C@@]3(C)Cn4cc([N+](=O)[O-])nc4O3)nn2)c1,MTT,J774,>40 µg/mL
CCCCCCCC/C=C\CCCCCCCCOCCOP(=O)(O)CO[C@H](CO)Cn1ccc(N)nc1=O,-,DAUDI,>1 µM
Cc1ccc2nc(Cl)c(/C=C/C(=O)c3ccc(C)s3)cc2c1,MTS,VERO,69.1 µM
COC(=O)c1ccc(Nc2s[nH]c(=O)c2C#N)cc1,-,Huh7,>50 µM
O=C1/C(=C/c2cccs2)CCc2ccccc21,-,Huh-7 cells and HepG2,2738 µM
COc1ccccc1-c1ccc(-c2ccc(/C=C3\SC(=O)NC3=O)cc2)cc1,MTS,HepG2-NTCP,9.6 µM
O=C(CCN1C(=O)C=CC1=O)N1CCCN(C(=O)CCN2C(=O)C=CC2=O)CCCN(C(=O)CCN2C(=O)C=CC2=O)CCC1,-,PM1 (PHA stimulated),1.5 µM
NCC(=O)NCCN1CCC(NC(=O)C(=O)Nc2ccc(Cl)cc2)CC12CCCCC2,WST,PM1,54 µM
Cn1c(=O)cc(Sc2ccc(C(C)(C)C)cc2)c2ccccc21,-,Huh-Luc-Neo,>100 µM
C[C@]1(Cn2cc(-c3ccc(OC(F)(F)F)cc3)nn2)Cn2cc([N+](=O)[O-])nc2O1,MTT,J774,>40 µg/mL
O=C1NC(=O)/C(=C/c2ccc(-c3ccc(-c4cccc5ccccc45)cc3)cc2)S1,MTS,HepG2-NTCP,25.5 µg/mL
O=c1[nH]c(=O)n([C@H]2CO[C@@H](CO)O2)cc1/C=C/Br,-,HEL 299,>200 µM
Cn1c(=O)cc(Sc2ccc(N)cc2)c2ccccc21,-,Huh-Luc-Neo,>100 µM
NC(N)=NCCN1CCC(NC(=O)C(=O)Nc2ccc(Cl)cc2)CC12CCCCC2,WST,PM1,50 µM
Cn1c(O)c(N=NC(=S)Nc2ccccc2)c2ccccc21,-,hRD,>25 µM
O=C1CCn2c(nc3c(c2=S)C2=C(CCC/C2=C\c2ccncc2)C(c2ccncc2)S3)S1,MTT,MGC-803,43.2 µM
CC(C)N(Cc1cccc(OCCCCCC(=O)OC(=O)O)c1)C(=O)c1ccc(-c2cccc(S(C)(=O)=O)c2)cc1,-,RAJI,>20 µM
N#Cc1c(Nc2ccc(I)cc2Cl)s[nH]c1=O,-,Huh7,<50 µM
Cc1ccc(OCCc2cn(C[C@@]3(C)Cn4cc([N+](=O)[O-])nc4O3)nn2)cc1,MTT,J774,>40 µg/mL
CCOC(=O)CCSc1nc(-c2cccs2)c2c(n1)-c1ccccc1CC2,-,HUh-7 and HepG2,716 µM
CCNC(=S)N=Nc1c(O)[nH]c2ccccc12,-,hRD,>25 µM
O=c1sc2nc3c(c(=S)n2/c1=C/c1ccccc1)C1=C(CCC/C1=C\c1ccncc1)C(c1ccncc1)S3,MTT,MGC-803,40.6 µM
OCCOCn1c(=S)[nH]c2c(Cl)c(Cl)ccc21,visual reading,HFF,>100 µM
C[C@@H]1Cc2nn3c(c2CN1C(=O)c1ccc(Cl)c(C#N)c1)C(=O)N([C@@H](C)c1ccc2c(c1)OC(F)(F)O2)CC3,luminescence,HepG2.117,>50 µM
Cn1cc(C(=O)NCc2ccc(Cl)cc2)c(=O)c2cc(CN3CCOCC3)ccc21,-,REF-5,>100 µM
OCC(CO)OCn1c(Cl)nc2c(Cl)c(Cl)ccc21,-,KB,>100 µM
C[C@]1(Cn2cc(COc3ccc(OC(F)(F)F)cc3)nn2)Cn2cc([N+](=O)[O-])nc2O1,MTT,J774,>40 µg/mL
Oc1[nH]c2ccccc2c1N=NC(=S)N1CCOCC1,-,hRD,>25 µM
CCOC(=O)CCCCCOc1cccc(CN(C(=O)c2ccc(-c3cccc(Oc4ccccc4)c3)cc2)C(C)C)c1,-,RAJI,13.5–20 µM
O=C(NCc1ccc(Cl)cc1)c1cn2c(CCN3CCOCC3)cc3cc(CN4CCOCC4)cc(c1=O)c32,MTS,CBL,>17.9 µM
CCOC(=O)C1=C(CN2CC(F)(F)[C@H]3[C@@H]2CCN3C[C@@H](OC)C(C)(C)C(=O)O)NC(c2nc(C)cs2)=N[C@H]1c1cccc(F)c1C,WST / absorbance,HepG2.2.15,21.4 µM
Cc1c(C(=O)N2Cc3c(nn4c3C(=O)N([C@@H](C)c3ccc(OC(F)F)cc3)CC4)C[C@H]2C)ccc(Cl)c1C#N,luminescence,HepG2.117,>50 µM
Oc1[nH]c2ccccc2c1N=NC(=S)Nc1ccc(Cl)cc1,-,hRD,>25 µM
COC(=O)C1=CO[C@@H](O)[C@@H]2C(CO)=CC[C@H]12,WST,SNU719,70 µM
C[C@@H]1Cc2nn3c(c2CN1C(=O)c1ccc(Cl)c(C#N)c1)C(=O)N([C@@H](C)c1cccc(OC(F)F)c1)CC3,luminescence,HepG2.117,>50 µM
N#CCN(CC#N)CCN1CCC(NC(=O)C(=O)Nc2ccc(Cl)cc2)CC12CCCCC2,WST,PM1,57 µM
N#Cc1c(NCC2CCCO2)s[nH]c1=O,-,Huh7,>50 µM

For reference, 13 entries again:

{"structure": "Oc1[nH]c2ccccc2c1N=NC(=S)Nc1cccc(Cl)c1", "cells": "hRD", "result": ">25 µM"}
{"structure": "O=C(NCc1ccc(Cl)cc1)c1cn2c(CCO)cc3cc(CN4CCOCC4)cc(c1=O)c32", "read by": "MTS", "cells": "CBL", "result": ">20.8 µM"}
{"structure": "CNC(=S)N=Nc1c(O)[nH]c2ccccc12", "cells": "hRD", "result": ">25 µM"}
{"structure": "CCOC(=O)C1=C(CN2CC(F)(F)[C@H]3[C@@H]2CCN3C[C@@H](OC)C(C)(C)C(=O)O)NC(c2nc(C)cs2)=N[C@H]1c1cccc(F)c1C", "read by": "WST / absorbance", "cells": "HepG2.2.15", "result": "21.4 µM"}
{"structure": "O=C(NCCOCCOCCN1C(=O)C=CC1=O)c1cc(C(=O)NCCOCCOCCN2C(=O)C=CC2=O)cc(C(=O)NCCOCCOCCN2C(=O)C=CC2=O)c1", "cells": "PM1 (PHA stimulated)", "result": "0.33 µM"}
{"structure": "OCC(CO)OCn1c(SCc2ccccc2)nc2cc(Cl)c(Cl)cc21", "cells": "KB", "result": ">100 µM"}
{"structure": "CCCNC(=S)N=Nc1c(O)[nH]c2ccccc12", "cells": "hRD", "result": ">25 µM"}
{"structure": "N#CCN(CC#N)CCN1CCC(NC(=O)C(=O)Nc2ccc(Cl)cc2)CC12CCCCC2", "read by": "WST", "cells": "PM1", "result": "57 µM"}
{"structure": "C[C@]1(Cn2cc(COc3ccccn3)nn2)Cn2cc([N+](=O)[O-])nc2O1", "read by": "MTT", "cells": "J774", "result": ">40 µg/mL"}
{"structure": "Cc1cccc(OCc2cn(C[C@@]3(C)Cn4cc([N+](=O)[O-])nc4O3)nn2)c1", "read by": "MTT", "cells": "J774", "result": ">40 µg/mL"}
{"structure": "Cc1ccc2nc(Cl)c(/C=C/C(=O)c3ccc(C)s3)cc2c1", "read by": "MTS", "cells": "VERO", "result": "69.1 µM"}
{"structure": "NCC(=O)NCCN1CCC(NC(=O)C(=O)Nc2ccc(Cl)cc2)CC12CCCCC2", "read by": "WST", "cells": "PM1", "result": "54 µM"}
{"structure": "Cn1c(=O)cc(Sc2ccc(N)cc2)c2ccccc21", "cells": "Huh-Luc-Neo", "result": ">100 µM"}

CCn: concentration that lowers growth or viability of the cells by n%. Lines come from different laboratories, so protocols vary. a–b is a range or a potency band.